The list shows a part of the results, in another mix than the full data. The source made the active and inactive calls.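 The calls were made as follows: active = inhibition above the mean of all tested compounds plus 3 SD, set per screening campaign (cut at about 45% in these data); inactive = the rest.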

The test system of the test is HCV core protein (residues 1-106) dimerization. The test is described as follows: blockers of core106 self-association – biochemical, TR-FRET, high-throughput, primary screen (AID 1899). The note with it: TR-FRET GST/Flag-core106 dimerization, 1536-well; at 5 µM; stronger effect = higher value. The gist of the method: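 Test system: GST/Flag-tagged HCV core106 proteins; Medium: KF-containing HEPES buffer, pH 7.45, DTT, CHAPS, BSA; Times: compound-protein-antibody incubation 4 h at 22.5 °C; Detection: TR-FRET 671 and 617 nm emission; Benchmarks: wells lacking GST-core106 and wells with excess unlabelled core106.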
(In TR-FRET formats the signal depends on donor and acceptor labels being close together.)
As a reminder, the inhibition is the relative decrease from the control value, in per cent. In the case of `Cc1cc(SC(NC=O)C(Cl)(Cl)Cl)ncn1` (stereo unspecified), the inhibition was inactive: -13.2%.
For `O=P(Nc1ccccn1)(c1cccc2ccccc12)c1cccc2ccccc12` the value was inactive: 15.4%; for `CCOC(=O)Nc1cccc([As](=O)(O)O)c1`, inactive: -3.28%; for `Cc1cc(SC(NC(=O)c2ccccc2)C(Cl)(Cl)Cl)nc(C(C)C)n1` (stereo unspecified), inactive: 0.94%.
For `CCOC(=O)Nc1ccc([As](=O)(O)O)c(O)c1` the value was inactive: -0.43%; for `CCC(C)N(CC(C)C)C(=S)SC(NC(C)=O)C(Cl)(Cl)Cl` (stereo unspecified), inactive: 2.24%.
Next, `CCOC(=O)c1ccc(NC(=O)C(C)(CCl)SC)cc1` (stereo unspecified): inactive: -13.1%; `O=C(OC1CN2CCC1CC2)c1cccc([N+](=O)[O-])c1` (stereo unspecified): inactive: -1.59%; `O=C(Nc1ccncc1[N+](=O)[O-])c1ccc([N+](=O)[O-])cc1[N+](=O)[O-]`: inactive: -2.73%.
`O=C(COc1ccccc1)OC1CN2CCC1CC2` (stereo unspecified): the inhibition is inactive: -5.29%.
`COP1(=S)c2c(C)nn(CCC#N)c2N=C(c2ccc(F)cc2)N1C` (stereo unspecified): the inhibition was inactive: -10.2%.
Next, `COc1ccc(N/C(=N/P(=O)(N2CCOCC2)N2CCOCC2)N2CCOCC2)cc1`: inactive: 2.82%.
Next, `COc1cc(I)ccc1[As](=O)(O)O`: inactive: -2.62%; `COc1ccc2nc(NP(=O)(c3ccccc3)c3ccccc3)sc2c1`: inactive: 1.68%; `Cc1cc(=O)[nH]c(N[N+](=O)[O-])n1`: inactive: -2.97%.
Consider `O=C(OC1CN2CCC1CC2)C12CC3CC(CC(C3)C1)C2` (stereo unspecified), for which the inhibition was inactive: -9.83%.
For `Cc1c2c(nc3ccccc13)SC(C(Cl)Cl)C2` (stereo unspecified), the inhibition is inactive: 11.2%.
As for `O=[N+]([O-])c1cc([N+](=O)[O-])c(-c2ccn[nH]2)s1`, the inhibition is inactive: -5.09%.
For `CC(C)NC(=O)NP(=O)(Oc1ccccc1)Oc1ccccc1` the value was inactive: -1.08%; for `CCN(CC)C(=S)SC(NC=O)C(Cl)(Cl)Cl` (stereo unspecified), inactive: -1.75%; for `CC(C)c1ccc(OP(=O)(Nc2ccccn2)Oc2ccccc2F)cc1` (stereo unspecified), inactive: 2.95%.
Take `ClCCSc1nnc(-c2cccnc2)o1`: the inhibition is inactive: -1.92%.
With `Cc1ccc2nc3c(c(C)c2c1)CC(C(Cl)Cl)S3` (stereo unspecified), the inhibition was inactive: 14.1%.
For `Cc1ccc(OP(=O)(Nc2ccc([N+](=O)[O-])cn2)Oc2ccc(C)cc2)cc1` the value was inactive: 12.4%.
As to `C[As](=O)(O)c1cccc(C(=O)O)c1`, the inhibition is inactive: -18.9%.
Take `O=[As](O)(c1ccc(O)cc1)c1ccccc1O`: the inhibition was inactive: 0.38%.
Consider `CN(C(=O)Cc1ccc(Cl)c(Cl)c1)[C@H]1CC[C@@]2(CCCO2)C[C@@H]1N1CCCC1`, for which the inhibition is inactive: 3.19%.
Consider `O=[N+]([O-])c1ccc2c(c1)nnn2O`, for which the inhibition was inactive: 0.68%.
Consider `CN(C)C(=O)c1cc([N+](=O)[O-])cc2c1-c1c(cc([N+](=O)[O-])cc1[N+](=O)[O-])C2=O`, for which the inhibition was inactive: -26.9%.
Consider `CN(C(=O)Cc1ccccc1)[C@@H]1CC[C@]2(CCCO2)C[C@H]1N1CCCC1`, for which the inhibition is inactive: -6.76%.
Next, `CCOP1(=S)c2c(C)nn(CCC#N)c2N=C(c2ccc(F)cc2)N1C` (stereo unspecified): inactive: -2.12%; `N#CCCN(C(=O)COC(=O)C(O)(c1ccccc1)c1ccccc1)c1ccc(F)cc1`: inactive: 1.53%.
Take `NC(=O)Nc1ccc([As](=O)(O)O)cc1`: the inhibition is inactive: -11.6%.
For `O=C(O)COc1ccc([As](=O)(O)O)cc1[N+](=O)[O-]` the value was inactive: -16.9%; for `Nc1ccccc1[As](=O)(O)c1ccccc1`, inactive: -0.48%; for `CS(=O)(=O)c1cc([N+](=O)[O-])c2no[n+]([O-])c2c1`, inactive: -7.41%.
Consider `O=P(Nc1nccs1)(Oc1ccccc1)Oc1ccccc1`, for which the inhibition is inactive: -10.1%.
For `O=P(Nc1nccs1)(c1ccccc1)c1nc2ccccc2s1` (stereo unspecified) the value was inactive: 0.37%; for `CCOP1(=S)c2c(C)nn(CCC#N)c2N=C(c2ccccc2F)N1C` (stereo unspecified), inactive: -6.96%; for `CCOP(=O)(Nc1cccc2ccccc12)OCC`, inactive: -1.07%.
Take `COc1cc(C2NCCC3(OCCO3)C2(C)C)cc(OC)c1OC` (stereo unspecified): the inhibition was inactive: -0.64%.
For `CCCOP(=S)(Nc1nc(N)cc(=O)[nH]1)OCCC` the value was inactive: 8.87%.
For `Cc1ccc(NCCc2c([N+](=O)[O-])cc([N+](=O)[O-])cc2[N+](=O)[O-])cc1` the value was inactive: 4.12%.
For `Nc1cccc2c([As](=O)(O)O)cccc12` the value was inactive: 0.18%; for `Cc1cccc(OCC(=O)OC2CN3CCC2CC3)c1` (stereo unspecified), inactive: -3.54%.
As for `O=[As](O)(c1cccc(O)c1)c1cccc(O)c1`, the inhibition is inactive: 0.04%.
Regarding `CS(=O)(=O)c1ccc(Cl)c(NC(=O)COC(=O)C(O)(c2ccccc2)c2ccccc2)c1`, the inhibition was inactive: 5.15%.
For `O=[As](O)(O)c1cccnc1` the value was inactive: -2.46%; for `COc1cc(C(=O)NCC2(N3CCOCC3)CCCCC2)cc(Cl)c1OC(C)C`, inactive: 2.55%.
On to `O=C(OC1CN2CCC1CC2)c1ccc(Cl)cc1` (stereo unspecified), for which the inhibition was inactive: 0.81%.
For `CC1(CBr)Cn2c(nc3ccccc3c2=O)S1` (stereo unspecified) the value was inactive: -4.52%.
For `O=[As](O)(c1ccccc1Br)c1ccccc1Br` the value was inactive: -1.49%.
Next, `CN(C(=O)Cc1ccc(Cl)c(Cl)c1)[C@@H]1CCCC[C@H]1N1CCCC1`: inactive: -2.63%; `CC(C)/C=N\N=C(\N)N[N+](=O)[O-]`: inactive: -1.51%.
As to `COc1ccccc1CNC(=O)COC(=O)C(O)(c1ccccc1)c1ccccc1`, the inhibition was inactive: 1.16%.
Next, `CC(C)(C)C(=O)NC(Sc1ncccn1)C(Cl)(Cl)Cl` (stereo unspecified): inactive: -1.17%; `Clc1n[nH]nc1-c1nn[nH][15n]1`: inactive: -2.52%; `CCOP(=O)(Nc1ccc(C)cn1)OCC`: inactive: -15.9%.
On to `CN(CCCl)Cc1cc(Cl)c(NC2=NCCN2)c(Cl)c1`, for which the inhibition was inactive: 5.42%.
Next, `CCOP(=O)(NC(=NC(C)c1ccccc1)NC(C)c1ccccc1)OCC` (stereo unspecified): inactive: -4.57%.
For `CCC1=CC2Cc3nc4ccc(Cl)cc4c(N)c3C(C1)C2` (stereo unspecified) the value was inactive: 2.78%; for `O=P1(Nc2ccccn2)COc2ccccc2OC1`, inactive: -3.03%.
On to `Cc1ccc(OCC(=O)OC2CN3CCC2CC3)cc1` (stereo unspecified), for which the inhibition is inactive: -9.84%.
For `O=[As](O)(c1cccs1)c1cccs1` the value was inactive: -8.99%; for `O=P1(Nc2ccc(Br)cn2)COc2ccccc2OC1`, inactive: -4.6%; for `Nc1cccc([As](=O)(O)c2ccccc2)c1`, inactive: -5.06%.
For `O=P1(Nc2ncccn2)COc2ccccc2OC1` the value was inactive: -1.91%; for `O=C(/C=C/c1ccccc1)OC1CN2CCC1CC2` (stereo unspecified), inactive: 3.06%.
Regarding `CN(C)C1(CNC(=O)c2ccc(S(C)(=O)=O)cc2)CCCCC1`, the inhibition was inactive: 2.12%.
For the compound `Cc1ccc(C(=O)OC2CN3CCC2CC3)cc1` (stereo unspecified), the inhibition was inactive: 2.47%.
For `CC1CCC(C(C)C)C(OP(=O)(Nc2ccccn2)c2ccccc2)C1` (stereo unspecified) the value was inactive: 1.79%.
For `Cc1nn(-c2ccccc2)c2c1P(=O)(N1CCOCC1)N(C)C(c1ccccc1)=N2` (stereo unspecified) the value was inactive: -0.09%; for `C(Cc1nn[nH]n1)Cc1nn[nH]n1`, inactive: -0.77%; for `Nc1ccc([As](=O)(O)c2ccc([N+](=O)[O-])cc2)cc1`, inactive: 0.97%.
For `O=C(OC1CN2CCC1CC2)c1cccc(Cl)c1` (stereo unspecified) the value was inactive: 1.64%; for `CC(=O)NC(SC(=S)N(C)C)C(Cl)(Cl)Cl` (stereo unspecified), inactive: -1.03%; for `O=[N+]([O-])c1ncn(CCn2cnc([N+](=O)[O-])n2)n1`, inactive: -1.92%.
Regarding `O=[N+]([O-])c1ccc(O)c(/C=N/Nc2ccc([N+](=O)[O-])cc2[N+](=O)[O-])c1`, the inhibition is inactive: -8.56%.
Next, `O=[As](O)(c1ccccc1)c1ccc(O)cc1`: inactive: 0.87%; `C[C@H]1OP(=O)(Oc2ccccc2)[C@H](O)[C@H](O)[C@H]1N=[N+]=[N-]` (stereo partly specified): inactive: -2.06%.
For `O=P(Nc1nc2ccccc2s1)(c1ccccc1)c1ccccc1` the value was inactive: -0.63%; for `CN(C)C1(CNC(=O)c2ccc(Cl)c(S(N)(=O)=O)c2)CCCCC1`, inactive: 2.68%.
For `O=P(Nc1ccccn1)(c1ccc(Br)cc1)c1ccc(Br)cc1` the value was inactive: 1.99%.
As for `c1nnnn1CCn1cnnn1`, the inhibition is inactive: -9.05%.
`O=P(Nc1nccs1)(c1ccccc1)c1ccccc1`: the inhibition was inactive: -2.83%.
Next, `CC(C)C(=O)NC(Sc1ccccc1)C(Cl)(Cl)Cl` (stereo unspecified): inactive: -6.87%.
`CC(=O)Nc1ccc(Oc2c([N+](=O)[O-])cc([N+](=O)[O-])cc2[N+](=O)[O-])cc1`: the inhibition is inactive: 1.96%.
Next, `CC(=O)Nc1ccc([As](=O)(O)O)c(O)c1`: inactive: -2.22%; `CC(=O)c1ccc(N2CC2c2ccncc2)cc1` (stereo unspecified): inactive: -0.38%.
With `C[C@H]1OP(=O)(Oc2ccccc2)C[C@@H]2O[C@@H]21` (stereo partly specified), the inhibition was inactive: 2.88%.
In the case of `C[C@@H]1C=CCP(=O)(Oc2ccccc2)O1` (stereo partly specified), the inhibition is inactive: -8.33%.
For `CC(C)(C)C(=O)NC(Sc1ccccc1)C(Cl)(Cl)Cl` (stereo unspecified) the value was inactive: 2.69%.
On to `CCOc1ccc(C2=NCC(CBr)S2)cc1` (stereo unspecified), for which the inhibition was inactive: 1.04%.
Turning to `O=P1(Nc2nc3ccc(Cl)cc3s2)COc2ccccc2O1` (stereo unspecified), the inhibition was inactive: -2.02%.
Consider `CN(C)C(=O)Oc1noc2ccccc12`, for which the inhibition is inactive: -2.25%.
Next, `Cc1ccccc1OP(=O)(Nc1ccccn1)Oc1ccccc1C`: inactive: 8.22%.
For `CC(=O)NC(SC(=S)N(CC(C)C)CC(C)C)C(Cl)(Cl)Cl` (stereo unspecified) the value was inactive: -0.64%.
In the case of `Cc1ccc(OP(=O)(Nc2ccccn2)Oc2ccc(C)cc2)cc1`, the inhibition is inactive: 4.92%.
For `COC(=O)c1cc2c(s1)N=C(c1ccccc1)N(C)P2(=O)N1CCOCC1` (stereo unspecified) the value was inactive: -5.73%.
For `CCC(=O)N1C2C3N(C(=O)CC)C1C1N(C(=O)CC)C(C(N1C(=O)CC)N3C(=O)CC)N2C(=O)CC` the value was inactive: -4.41%; for `O=C(OC1CN2CCC1CC2)c1ccccc1` (stereo unspecified), inactive: -2.77%.

The values above are taken from PubChem BioAssay AID1899 (The Scripps Research Institute Molecular Screening Center, 2009).
